This passage reports EC50, fold better binding than gp120MS and fold better binding than gp140SC results from paper PMC3444823.

Common to all, as to test: ELISA
Assay [1] deals with single-chain fusion protein of CD4i antibody domain m36.4 with gp120SC (human | HIV-1 (clade B isolate)).
The target of assay [2] is single-chain fusion protein of CD4i antibody domain m36.4 with gp120MS (human | HIV-1 (clade A isolate)).
Assay [3] deals with single-chain fusion protein of CD4i antibody domain m36.4 with gp140SC (human | HIV-1 (clade B isolate)).

In general, EC50 refers to the concentration needed to bring the measured effect to its halfway point. In turn, “Fc-fusion protein of sCD4 (from UniProt P01730) (Fc fusion)” had a 50% effective concentration (EC50) in assay [1] of 2 nM. Moreover, the fold better binding than gp120MS in assay [2] was 3 fold. Moreover, the fold better binding than gp140SC in assay [3] is 3 fold.
